Measurements: patent US20070281947A1, “Diarylmethylpiperazines As Prophylactic Or Therapeutic Agents For Viral Myocarditis” (priority 2002, published 2007)

System: EMC virus
Assay: Effect on histopathological changes in heart muscle in a cardiac insufficiency model induced by EMC viral myocarditis in mice
Assay type: in vivo
Settings: DBA/2 mice, 5 days
Description: A comparative study was conducted on the effect of cetirizine on histopathological changes in heart muscle in a cardiac insufficiency model induced by EMC viral myocarditis in mice.
28-day-old, male DBA/2 mice were divided into three groups, and EMC virus was inoculated intraperitoneally to all groups at 1 pfu/mouse (day 0) in the same manner as Test Example 1. […]
After five days, the hearts of the animals were removed, stained with hematoxylin-eosin stain after fixing with formalin, and scored for the two parameters of heart muscle cellular necrosis and inflammatory cellular invasion in the manner described below (documents such as Circulation 1999; 100; 1823-1829 can be referred to for further details regarding this formalin fixation, hematoxylin-eosin staining and scoring). The scores for heart muscle cellular necrosis and inflammatory cellular invasion were evaluated independently by two observers and then averaged. […]
Data consisting of heart weight, body weight, heart weight/body weight ratio, heart muscle cellular necrosis and inflammatory cellular invasion measured in accordance with that described above is summarized in Table 1 below. […]

O=C(O)COCCN1CCN(C(c2ccccc2)c2ccc(Cl)cc2)CC1 (racemic) [Cetirizine, (±)-[2-[4-[(4-chlorophenyl)phenylmethyl]-1-piperazinyl]ethoxy]acetic acid]
Body weight (g) (day 5) (1 mg/kg/day oral, n = 10, mean ± SD): 13.0 ± 2.6 g | Body weight (g) (day 5) (10 mg/kg/day oral, n = 7, mean ± SD): 11.4 ± 2.1 g
